{"source": "PubChem BioAssay AID1259414 | Drosophila RNAi Screening Center | 2018", "screen": "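Fly genes that alter Wolbachia amount inside host cells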 (primary screen)", "cell system": "Drosophila JW18 cells infected with Wolbachia", "reagents": "long dsRNA against Drosophila genes, 0.25 µg dsRNA per well of a 384-well plate", "timing": "5 days", "challenge": "cells persistently infected with Wolbachia before knock-down; no added drug", "read-out": "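Automated imaging of bacterial rRNA staining divided by host cell count, reported as plate-normalised robust z-score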", "direction": "Wolbachia per cell robust z: higher = more Wolbachia per host cell than the plate typical", "call rule": "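Active if absolute robust z reaches 1.5 in two or more of three replicates, leaving out multi- or no-target dsRNAs, genes unexpressed in JW18 and A1 wells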", "note": "The screen tested about 24,000 reagents; this is a random part of those with a known target gene and a result. Over the whole deposit, about 1,210 (5%) were called active. 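Inactive calls also include excluded dsRNAs with several or no targets, genes unexpressed in JW18, and well A1, regardless of score.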 A plus sign joins genes that one reagent is predicted to hit."}
The first 2 records, ahead of the listing:
{"Target gene":"Srlp","dsRNA":"DRSC15890","Wolbachia per cell robust z, rep 1":0.81,"Wolbachia per cell robust z, rep 2":1.6,"Wolbachia per cell robust z, rep 3":-1.04,"activity call":"inactive"}
{"Target gene":"LIMK1","dsRNA":"DRSC19811","Wolbachia per cell robust z, rep 1":-3.19,"Wolbachia per cell robust z, rep 2":-10,"Wolbachia per cell robust z, rep 3":-0.932,"activity call":"inactive"}

Results, from the first entry:
{"Target gene":"Srlp","dsRNA":"DRSC15890","Wolbachia per cell robust z, rep 1":0.81,"Wolbachia per cell robust z, rep 2":1.6,"Wolbachia per cell robust z, rep 3":-1.04,"activity call":"inactive"}
{"Target gene":"LIMK1","dsRNA":"DRSC19811","Wolbachia per cell robust z, rep 1":-3.19,"Wolbachia per cell robust z, rep 2":-10,"Wolbachia per cell robust z, rep 3":-0.932,"activity call":"inactive"}
{"Target gene":"CG10916","dsRNA":"DRSC06012","Wolbachia per cell robust z, rep 1":-4.5,"Wolbachia per cell robust z, rep 2":-0.836,"Wolbachia per cell robust z, rep 3":-6.63,"activity call":"active"}
{"Target gene":"Prosbeta2R1","dsRNA":"DRSC18154","Wolbachia per cell robust z, rep 1":0.492,"Wolbachia per cell robust z, rep 2":1.43,"Wolbachia per cell robust z, rep 3":0.598,"activity call":"inactive"}
{"Target gene":"CG15734","dsRNA":"DRSC19701","Wolbachia per cell robust z, rep 1":0.46,"Wolbachia per cell robust z, rep 2":-2.95,"Wolbachia per cell robust z, rep 3":0.356,"activity call":"inactive"}
{"Target gene":"Pde11","dsRNA":"DRSC02028","Wolbachia per cell robust z, rep 1":0.317,"Wolbachia per cell robust z, rep 2":-1.29,"Wolbachia per cell robust z, rep 3":-0.787,"activity call":"inactive"}
{"Target gene":"Pde11","dsRNA":"DRSC02460","Wolbachia per cell robust z, rep 1":-0.935,"Wolbachia per cell robust z, rep 2":1.13,"Wolbachia per cell robust z, rep 3":1.09,"activity call":"inactive"}
{"Target gene":"Pde11","dsRNA":"DRSC26665","Wolbachia per cell robust z, rep 1":0.367,"Wolbachia per cell robust z, rep 2":-0.564,"Wolbachia per cell robust z, rep 3":0.522,"activity call":"inactive"}
{"Target gene":"CG8814","dsRNA":"DRSC00707","Wolbachia per cell robust z, rep 1":-0.15,"Wolbachia per cell robust z, rep 2":0.462,"Wolbachia per cell robust z, rep 3":-1.19,"activity call":"inactive"}
{"Target gene":"CG8814","dsRNA":"DRSC25994","Wolbachia per cell robust z, rep 1":0.168,"Wolbachia per cell robust z, rep 2":-0.107,"Wolbachia per cell robust z, rep 3":-0.24,"activity call":"inactive"}
{"Target gene":"Nop10","dsRNA":"DRSC28427","Wolbachia per cell robust z, rep 1":-0.555,"Wolbachia per cell robust z, rep 2":-1.84,"Wolbachia per cell robust z, rep 3":-1.23,"activity call":"inactive"}
{"Target gene":"CG15136","dsRNA":"DRSC02436","Wolbachia per cell robust z, rep 1":0.248,"Wolbachia per cell robust z, rep 2":-2.46,"Wolbachia per cell robust z, rep 3":0.00468,"activity call":"inactive"}
{"Target gene":"kel","dsRNA":"DRSC03554","Wolbachia per cell robust z, rep 1":-0.755,"Wolbachia per cell robust z, rep 2":-1.14,"Wolbachia per cell robust z, rep 3":-0.748,"activity call":"inactive"}
{"Target gene":"CG6765","dsRNA":"DRSC10706","Wolbachia per cell robust z, rep 1":0.925,"Wolbachia per cell robust z, rep 2":0.571,"Wolbachia per cell robust z, rep 3":0.916,"activity call":"inactive"}
{"Target gene":"CG6765","dsRNA":"DRSC24612","Wolbachia per cell robust z, rep 1":0.666,"Wolbachia per cell robust z, rep 2":0.335,"Wolbachia per cell robust z, rep 3":1.17,"activity call":"inactive"}
{"Target gene":"Obp50b + Obp50c","dsRNA":"DRSC21818","Wolbachia per cell robust z, rep 1":-2.26,"Wolbachia per cell robust z, rep 2":-1.46,"Wolbachia per cell robust z, rep 3":-0.817,"activity call":"inactive"}
{"Target gene":"cic","dsRNA":"DRSC16918","Wolbachia per cell robust z, rep 1":-3.89,"Wolbachia per cell robust z, rep 2":0.84,"Wolbachia per cell robust z, rep 3":0.61,"activity call":"inactive"}
{"Target gene":"cic","dsRNA":"DRSC21243","Wolbachia per cell robust z, rep 1":0.0903,"Wolbachia per cell robust z, rep 2":0.472,"Wolbachia per cell robust z, rep 3":0.935,"activity call":"inactive"}
{"Target gene":"cic","dsRNA":"DRSC23217","Wolbachia per cell robust z, rep 1":0.774,"Wolbachia per cell robust z, rep 2":0.79,"Wolbachia per cell robust z, rep 3":0.934,"activity call":"inactive"}
{"Target gene":"cic","dsRNA":"DRSC25516","Wolbachia per cell robust z, rep 1":-0.921,"Wolbachia per cell robust z, rep 2":-0.386,"Wolbachia per cell robust z, rep 3":0.659,"activity call":"inactive"}
{"Target gene":"cic","dsRNA":"DRSC25800","Wolbachia per cell robust z, rep 1":-1.31,"Wolbachia per cell robust z, rep 2":-1.66,"Wolbachia per cell robust z, rep 3":0.104,"activity call":"inactive"}
{"Target gene":"cic","dsRNA":"DRSC30090","Wolbachia per cell robust z, rep 1":-1.42,"Wolbachia per cell robust z, rep 2":-0.348,"Wolbachia per cell robust z, rep 3":-0.434,"activity call":"inactive"}
{"Target gene":"TRAM","dsRNA":"DRSC18178","Wolbachia per cell robust z, rep 1":-0.633,"Wolbachia per cell robust z, rep 2":-7.95,"Wolbachia per cell robust z, rep 3":0.263,"activity call":"inactive"}
{"Target gene":"TRAM","dsRNA":"DRSC18651","Wolbachia per cell robust z, rep 1":0.0758,"Wolbachia per cell robust z, rep 2":-0.339,"Wolbachia per cell robust z, rep 3":-0.868,"activity call":"inactive"}
